Laboratory results: patent publication US20070059799A1

Molecular target: HLA-A*6802 (Human)
Assay: competition with 125I-labeled probe peptide for purified HLA, gel filtration
Settings: remark: other sources report otherwise

VLLDYQGMLPV (modifications not checked) [HBV ENV 259 peptide 1147.14 (…)]
IC50: 2.35 µM
